From PMC8605023

Chains of the proteins cited; added tags and fusions are not shown. Residues count along the entry.
UniProt Q93009, 63-205 limits assumed: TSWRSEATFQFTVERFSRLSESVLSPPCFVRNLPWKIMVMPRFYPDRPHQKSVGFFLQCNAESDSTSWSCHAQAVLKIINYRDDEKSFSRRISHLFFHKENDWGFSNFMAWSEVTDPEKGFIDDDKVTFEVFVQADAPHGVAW

Target: USP7 (Homo sapiens, UniProt Q93009)
Test: FP displacement assay, USP7
Format: binding

CSCC[C@H](NC(=O)[C@H](CO)NC(=O)[C@H](CC(N)=O)NC(=O)[C@H](CCC(N)=O)NC(=O)[C@H](CC(C)C)NC(=O)[C@H](Cc1ccc(O)cc1)NC(C)=O)C(=O)N[C@@H](CO)C(=O)NCC(=O)N[C@@H](C)C(=O)N[C@@H](CO)C(=O)N[C@@H](C)C(=O)N[C@@H](CC(=O)O)C(=O)N[C@@H](CO)C(=O)N[C@H](C(=O)N[C@@H](CCC(N)=O)C(=O)N[C@@H](C)C(N)=O)[C@@H](C)O
pIC50 (FP displacement of 10 nM FITC-labeled probe, protein at 4 x KD of probe, 50 mM phosphate buffer pH 7.5): 3.16 | Ki displacement/Kd direct binding (Ki displacement, unlabelled peptide, phosphate buffer pH 7.5): 96 µM

pIC50: −log10 of the molar value. The match of structure and compound is tentative.
